“Also recorded” adds a separate entry of the source.
Tested on: importin-β
Test: Binding of importin-β to immobilised GST-Tat:NLS/CPP on glutathione column, SDS-PAGE
Set-up: species or system mouse
Conditions: GST-Tat:NLS/CPP fusion immobilised on glutathione column, importin-β passed over

## GRKKRRQRRRAPQN [Tat:NLS/CPP, entire cell penetrating region of HIV-1 Tat, residues 48–61, recombinantly expressed as a GST-fusion, tag cleaved by TEV for crystallisation]
  binding to importin-β (column retention / complex formation): lack of complex formation; also recorded: no direct interaction

From article PMC5431807, “Structural Basis for Importin-α Binding of the Human Immunodeficiency Virus Tat” (Scientific Reports, 2017)
